# In article PMC4176358:
# No signal at the amounts used counts as a negative. Where a protein sequence is shown, tags need not be part of it.
# Target: T1, VqsMt (truncated VqsM) (Pseudomonas aeruginosa PAO1) (UniProt Q9I1P2)
# T1 sequence (looked up): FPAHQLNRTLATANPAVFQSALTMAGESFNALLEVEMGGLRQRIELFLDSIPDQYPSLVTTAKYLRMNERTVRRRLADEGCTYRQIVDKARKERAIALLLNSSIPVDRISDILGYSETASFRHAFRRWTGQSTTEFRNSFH
# Assay: EMSA
# Settings: 20 mM Tris-HCl pH 7.4, 50 mM KCl, 5 mM MgCl2, 10% glycerol, 3 ug/ml sheared salmon sperm DNA, room temperature 20 min, DNA 40-50 nM (footprint DNase I at 25 C), recombinant protein, residues 185-325, protein details: His6 (pMCSG7), probe letters rebuilt from the primers and the genome
Sequence,binding result (up to 1.0 uM),binding result
AATCAGCCAAATATGGATTCGGCACCCGATATCCGGCACGTTGTACGGCAGTCCGAGAATCCCGGCTTCCTGCCGAGGCGCATGCGCCCGTGCCCGACGACCCCTGAAGATGTCCAGTCAGCCCACTCTATAGAGTTGGCGTTGTGCCGGAAAGGCACATTTCAGTCCCACTTAACAATAGACCGCAGCGTTTGATGCACCTAGTACGATACCCGTCCTAGAGGGTAAGCAAACGTTTAAATGTGATCTAGATCACATTTTATGCGAACTGAATACCCAGTCACACCTGGTCCCCGGGTTCACTGTCGGCCCATC (double strand) [lasR promoter],no binding,
ATTTCGGCGGCCTCCTGTCGCTCTTCCGCCGGCCCACAACCCGCCAACGCGATGGCCATAGCCAACGCCCCGATCCTTCCTATTGCACGCAAATCAGCCATGACACACCCGACCGTTGATTGAAAACGGATCGAATGGTACTTTTTCGAGCTAATTGAGTCAATATTGTCTCAAATGATCTTTTGACAGCTAATTCCTTTGGACGCGAGGCCAGTTTTCTGCACAATGCGCACAATCAGAAAAACCAACCGGGACCCATCGATGACCCTGATTTCCCATGACGAGCGACTCATCAAGGCGCTGGCAGTCGCT (double strand) [nfxB promoter],,binds
